Compound potency records, mixed from different reports. Data source: NIAID ChemDB in PubChem.

All rows: growth or infection tests; organism: Mycobacterium tuberculosis

Inhibition is in % at the dose shown (toxicity tests: loss of growth or viability).

compound | read by | strain | mutations | tested at | endpoint | result
C[C@]1(COc2ccc(N3CCN(Cc4cc5cc(OC(F)(F)F)ccc5o4)CC3)cc2)Cn2cc([N+](=O)[O-])nc2O1 |  | H37Rv |  |  | MIC | 0.012 µg/mL
C=C(C)C1CC2(C)C(C)CC(OC(=O)/C(C)=C\C)CC2C(OC(=O)/C(C)=C\C)C1O | BACTEC | H37Rv |  |  | MIC bound | >12.5 µg/mL
COc1ccc(-c2csc(-n3c(C)ccc3C)n2)cc1OC | resazurin | H37Rv |  |  | MIC | 50 µg/mL
Clc1ccc2c(Cl)cc(N3CCOCC3)nc2n1 | BACTEC | H37Rv |  |  | EC50 | >6.25 µg/mL
C[C@]1(COc2ccc(N3CCC(OCc4ccc(OC(F)(F)F)cc4)CC3)cc2)Cn2cc([N+](=O)[O-])nc2O1 |  | H37Rv |  |  | MIC | 0.003 µg/mL
O=S(=O)(Nc1nc2ccccc2n1S(=O)(=O)c1ccccc1)c1ccccc1 |  | H37Rv |  |  | MIC bound | >6.25 µg/mL
O=[N+]([O-])c1cn2c(n1)O[C@@H](COc1ccc(N3CCC(OCc4ccc(OC(F)(F)F)cc4)CC3)cc1)C2 |  | H37Rv |  |  | MIC | 0.024 µg/mL
Cc1cc(-c2cc3c(cc2F)c(=O)c(C(=O)O)cn3C2CC2)cc(C)n1 |  | 1620-6 |  |  | MIC | 1 µg/mL
CCCCCN1C(=O)c2ccnnc2Oc2ccc(C)cc21 | BACTEC | H37Rv |  |  | EC50 | >12.5 µg/mL
CCCCCn1cnc2c1S(=O)(=O)N(C)C(NC(=O)c1ccccc1)=N2 | resazurin | H37Rv |  |  | MIC bound | >6.25 µg/mL
C=CCNC(=S)N=Nc1c(O)[nH]c2ccc(OC(F)(F)F)cc12 | broth dilution / resazurin | H37Rv |  |  | EC90 | >100 µg/mL
CN(C)CCCNC(=O)Nc1c(C#N)[n+]([O-])c2ccccc2[n+]1[O-] |  | H37Rv |  | 6.25 µg/mL | inhibition | 90%
S=C1NC2=C(COC/C2=C/c2ccccc2Cl)C(c2ccccc2Cl)N1 | BACTEC | H37Rv |  |  | MIC bound | >12.5 µg/mL
Nc1ccc2c(N3CCOCC3)cc(N3CCOCC3)nc2n1 | BACTEC | H37Rv |  | 6.25 µg/mL | inhibition | 0%
C[C@]1(COc2ccc(N3CCC(CCOCc4ccc(C(F)(F)F)cc4)CC3)cc2)Cn2cc([N+](=O)[O-])nc2O1 |  | H37Rv |  |  | MIC | 0.024 µg/mL
COc1ccc(NC(=S)N=Nc2c(O)[nH]c3ccc(OC(F)(F)F)cc23)cc1 | broth dilution / resazurin | H37Rv |  |  | EC90 | >100 µg/mL
Cc1ccc2nc(Cl)c(C#N)nc2c1 |  | H37Rv |  | 6.25 µg/mL | inhibition | 39%
CO[C@H]1/C=C/O[C@@]2(C)Oc3c(C)c(O)c4c(O)c(c5c(c4c3C2=O)NC2(C[C@@H](c3ccc(F)cc3)N[C@@H](c3ccc(F)cc3)C2)N=5)=NC(=O)/C(C)=C\C=C\[C@H](C)[C@H](O)[C@@H](C)[C@H](O)[C@H](C)[C@H](OC(C)=O)[C@@H]1C |  | H37Rv |  |  | MIC | 0.02 µg/mL
CC(=O)Nc1cccc2cccnc12 |  | H37Rv |  |  | MIC | >6.25 µg/mL
COc1ccc2c(c1)[n+]([O-])c(C#N)c(NC(=O)OC(C)C)[n+]2[O-] |  | H37Rv |  |  | MIC | <12.5 µg/mL
CC(C)(C)c1ccc2cccc([N+](=O)[O-])c2n1 |  | H37Rv |  | 6.25 µg/mL | inhibition | 12%
CCCCCCCN1C(=O)c2cc(Cl)nnc2Oc2ccc(C)cc21 | BACTEC | H37Rv |  |  | EC50 | >12.5 µg/mL
CO[C@@H]1C/C=C\C=C\C[C@H](C)[C@@H](O)C[C@@H](O)[C@H](C)[C@H](O)CC(=O)O[C@H]([C@H](C)[C@H](O)/C=C(\C)CC/C=C/C=C/CC(O)CC(C)CCC(=O)O)C[C@H](O)CCC1 | resazurin / absorbance | H37Rv |  |  | MIC | 0.4 µg/mL
O=c1[nH]c2cnn(-c3ccccc3)c2c(=O)n1O | resazurin | H37Rv |  |  | MIC bound | >6.25 µg/mL
COc1ccc(-c2noc(C3=CC4(CCN(CC5CCCO5)CC4)c4ccccc43)n2)cc1 | turbidity | TB376 | Spiroindene-resistant |  | MIC | 3 µM
CCCCCCN1C(=O)c2cc(Cl)nnc2Oc2ccc3ccccc3c21 | BACTEC | H37Rv |  | 12.5 µg/mL | inhibition | 0%
CCOC(=O)C1=CNC(C(=O)OCC)C1c1cccn1-c1ccccc1 | BACTEC | H37Rv |  |  | MIC bound | >6.25 µg/mL
Cn1c(O)c(N=NC(=S)Nc2ccccc2)c2cc(OC(F)(F)F)ccc21 | broth dilution / resazurin | H37Rv |  |  | EC50 | <0.2 µg/mL
CC(C)(C)c1ccc(CN2CCC3(CC2)C(=O)Nc2ccccc23)cc1 | resazurin | H37Rv |  |  | MIC | 3 µM
CNC(=S)N=Nc1c(O)n(CN2CCOCC2)c2ccc(OC(F)(F)F)cc12 | broth dilution / resazurin | H37Rv |  |  | EC90 | >100 µg/mL
C1=C(c2nc(-c3cccnc3)no2)c2ccccc2C12CCN(CC1CCCO1)CC2 | resazurin | ATCC 2794 | Drug-resistant |  | MIC | 1.56 µM
Nc1nc(OCc2ccccc2)ncc1C(=O)NCC(=O)O | BACTEC | H37Rv |  |  | MIC bound | >12.5 µg/mL
Clc1cc(N2CCOCC2)nc2nc(N3CCOCC3)ccc12 | BACTEC | H37Rv |  |  | EC50 | >6.25 µg/mL
NC[C@@H]1O[C@H](O[C@H]2[C@@H](O)[C@H](O[C@@H]3[C@@H](O)[C@H](N)C[C@H](N)[C@H]3O[C@H]3O[C@H](CO)[C@@H](O)C[C@H]3N)O[C@@H]2CO)[C@H](N)[C@@H](O)[C@@H]1O[C@H]1O[C@H](CO)[C@@H](O)[C@H](O)[C@@H]1O |  | Aoyama B (capreomycin-resistant) |  |  | EC50 | ≥50 µg/mL
Cc1ccc2[nH]c(O)c(N=NC(=S)Nc3ccc([N+](=O)[O-])cc3)c2c1 | broth dilution / resazurin | H37Rv |  |  | EC50 | >100 µg/mL
COc1ccc([C@@H]2CC3(C[C@H](c4ccc(OC)cc4)N2)N=c2c(c4c5c6c(C)c(O)c4c(O)c2=NC(=O)/C(C)=C\C=C\[C@H](C)[C@H](O)[C@@H](C)[C@H](O)[C@H](C)[C@H](OC(C)=O)[C@H](C)[C@@H](OC)/C=C/O[C@@](C)(O6)C5=O)N3)cc1 |  | ATCC 35820 (streptomycin-resistant) |  |  | MIC | 0.02 µg/mL
CO[C@H]1/C=C/O[C@@]2(C)Oc3c(C)c(OC(C)=O)c4c(c3C2=O)C(=O)C=C(NC(=O)/C(C)=C\C=C\[C@H](C)[C@H](OC(C)=O)[C@@H](C)[C@@H](O)[C@@H](C)[C@H](OC(C)=O)[C@@H]1C)C4=O | BACTEC | H37Rv |  |  | MIC | 3.13 µg/mL
CC(=O)c1cc([N+](=O)[O-])c2nc(C(C)C)ccc2c1C(C)C |  | H37Rv |  |  | MIC | 6.25 µg/mL
C=CC(C)(C)c1cc2cc3c(cc2oc1=O)OC(C(C)(C)OC(C)=O)C3 | BACTEC | H37Rv |  |  | MIC bound | >12.5 µg/mL
C[C@]1(COc2ccc(N3CCC(Nc4cc(Cl)cc(Cl)c4)CC3)cc2)Cn2cc([N+](=O)[O-])nc2O1 |  | H37Rv |  |  | MIC | 0.024 µg/mL
O=C(Nc1cccc2c(C3CCCCC3)cc(C3CCCCC3)nc12)C(F)(F)F |  | H37Rv |  | 6.25 µg/mL | inhibition | 96%
O=c1ccc2c(N3CCCCC3)cc(N3CCOCC3)nc2[nH]1 | BACTEC | H37Rv |  | 6.25 µg/mL | inhibition | 0%
O=C(O)c1cnc(Cl)cn1 |  | CDC-BP-98 |  |  | MIC | 128 µg/mL
O=[N+]([O-])c1cccc2c(C3CCCC3)cc(C3CCCC3)nc12 |  | H37Rv |  |  | MIC | 6.25 µg/mL
C[C@]1(COc2ccc3nc(N4CCC(=Cc5ccc(OC(F)(F)F)cc5)CC4)ccc3c2)Cn2cc([N+](=O)[O-])nc2O1 |  | H37Rv |  |  | MIC | 0.012 µg/mL
NC(=S)N=Nc1ccc(O)c2c(O)ccc(O)c12 | BACTEC | H37Rv |  |  | MIC bound | >12.5 µg/mL
Cc1cccc(/C=N/NC(=S)N(C)C)n1.[Cl][Cu][Cl] |  | V4207 |  |  | MIC90 | 1.56 µM
N#Cc1c(N)[n+]([O-])c2ccc(F)cc2[n+]1[O-] |  | H37Rv |  |  | MIC | <12.5 µg/mL
COc1cc(CC2C(=O)OCC2C(=O)c2ccc3c(c2)OCO3)cc(OC)c1OC | BACTEC | H37Rv |  |  | MIC bound | >12.5 µg/mL
CCCCN1[C@@H](c2ccccc2)CC2(C[C@H]1c1ccccc1)N=c1c(c3c4c5c(C)c(O)c3c(O)c1=NC(=O)/C(C)=C\C=C\[C@H](C)[C@H](O)[C@@H](C)[C@H](O)[C@H](C)[C@H](OC(C)=O)[C@H](C)[C@@H](OC)/C=C/O[C@@](C)(O5)C4=O)N2 |  | ATCC 35838 (rifampicin- rifabutin-resistant) |  |  | MIC | 1 µg/mL
O=C([O-])[C@H]([O-])[C@@H]([O-])C(=O)[O-].O=C([O-])[C@H]([O-])[C@@H]([O-])C(=O)[O-].[Na+].[Na+].[Na+].[Na+].[O]=[V+2].[O]=[V+2] | BACTEC | H37Rv |  | 12.5 µg/mL | inhibition | 4%
C=C/C(C)=C/[C@@]1(C)SC(=O)C(C)=C1O |  | PMH29:kasA/kasB |  |  | MIC | 30 µg/mL
CC1COc2c(N3CCN(C)CC3)c(F)cc3c(=O)c(C(=O)O)cn1c23 | resazurin | ATCC 2794 | Drug-resistant |  | MIC | 0.14 µM
Cc1ccc2c(c1)[n+]([O-])c(C#N)c(NC(=O)OC(C)C)[n+]2[O-] |  | H37Rv |  |  | MIC | <12.5 µg/mL
CNC(=O)OCc1c(C)sc(-c2ccccc2)c1COC(=O)NC | BACTEC | H37Rv |  |  | MIC bound | >12.5 µg/mL
CCCCCCCCN1C(=O)c2ccnnc2Oc2cc(C)ccc21 | BACTEC | H37Rv |  | 12.5 µg/mL | inhibition | 12%
O=C1[C@@H]2C(c3ccccc3)=NN(C(=O)c3ccccc3)[C@@H]2C(=O)N1c1ccccc1 | BACTEC | H37Rv |  |  | MIC bound | >12.8 µg/mL
O=C(NN1C(=O)c2ccccc2C1=O)c1ccc(-n2cccc2)cc1 | resazurin | H37Rv |  |  | MIC | 0.4 µg/mL
Cc1cc(=O)c2c(O)c3c(O)cc(O)c4c5c(O)cc(O)c6c(O)c7c(=O)cc(C)c8c1c2c(c34)c(c65)c78 | BACTEC | H37Rv |  |  | MIC | ≥12.5 µg/mL
Cc1ccc(C)n1-c1ccc(C(=O)NN2C(=O)c3c(Cl)c(Cl)c(Cl)c(Cl)c3C2=O)cc1 | resazurin | H37Rv |  |  | MIC | 0.4 µg/mL
CN[C@@H]1[C@H](O[C@H]2[C@H](O[C@H]3[C@H](O)[C@@H](O)[C@H](N=C(N)N)[C@@H](O)[C@@H]3N=C(N)N)O[C@@H](C)[C@]2(O)C=O)O[C@@H](CO)[C@H](O)[C@H]1O | resazurin | 19000 | Rifampicin-resistant |  | MIC | 0.5 µM
NC(=O)c1cnn(CCO)c1N | BACTEC | H37Rv |  |  | MIC | ≥12.5 µg/mL
CCN(CC)CCNC(=O)Nc1c(C#N)[n+]([O-])c2cc(F)ccc2[n+]1[O-] |  | H37Rv |  |  | MIC | <12.5 µg/mL
Cc1ccc2[nH]c(O)c(N=NC(=S)Nc3cccc(Br)c3)c2c1 | broth dilution / resazurin | H37Rv |  |  | EC90 | 1.489 µg/mL
CCN(CC)CCNC(=O)Nc1c(C#N)[n+]([O-])c2ccccc2[n+]1[O-] |  | H37Rv |  | 6.25 µg/mL | inhibition | 0%
NNC(=O)C1COc2ccccc2O1 | BACTEC | H37Rv |  |  | MIC | ≥12.5 µg/mL
Cc1ccc2c(c1)c(N=NC(=S)Nc1ccc(Br)cc1)c(O)n2C | broth dilution / resazurin | H37Rv |  |  | EC50 | >100 µg/mL
Cc1ccc(-c2noc(C3=CC4(CCN(CC5CCCO5)CC4)c4ccccc43)n2)cn1 | turbidity | H37Rv | Spiroindene-resistant |  | MIC | 0.5 µM
O=C1CC(SC(=S)N2CCOCC2)C(=O)N1 |  | ETA-R |  |  | MIC | 6.4 µg/mL
CC1=CC(=O)N(NC(=O)c2ccc(-n3c(C)ccc3C)cc2)C1=O | resazurin | H37Rv |  |  | MIC | 3.125 µg/mL
O=C(N=Nc1c(O)[nH]c2c(Cl)cc(Cl)cc12)c1ccccc1O | BACTEC | H37Rv |  | 12.5 µg/mL | inhibition | -21%
CC/C(=C(\c1ccccc1)c1ccc(OCCN(C)C)cc1)c1ccccc1 | resazurin | XDR |  |  | MIC | 6.25–12.5 µg/mL
O=C(/C=C/C(=O)Nc1ccc(O)cc1)Nc1ccc(O)cc1 | resazurin | H37Rv |  | 6.25 µg/mL | inhibition | -14%
CN(c1ccc(OC[C@@]2(C)Cn3cc([N+](=O)[O-])nc3O2)cc1)C1CCN(c2ccc(OC(F)(F)F)cc2)CC1 |  | H37Rv |  |  | MIC | 0.024 µg/mL

Repeating the final 6 entries:

compound	read by	strain	mutations	tested at	endpoint	result
O=C1CC(SC(=S)N2CCOCC2)C(=O)N1		ETA-R			MIC	6.4 µg/mL
CC1=CC(=O)N(NC(=O)c2ccc(-n3c(C)ccc3C)cc2)C1=O	resazurin	H37Rv			MIC	3.125 µg/mL
O=C(N=Nc1c(O)[nH]c2c(Cl)cc(Cl)cc12)c1ccccc1O	BACTEC	H37Rv		12.5 µg/mL	inhibition	-21%
CC/C(=C(\c1ccccc1)c1ccc(OCCN(C)C)cc1)c1ccccc1	resazurin	XDR			MIC	6.25–12.5 µg/mL
O=C(/C=C/C(=O)Nc1ccc(O)cc1)Nc1ccc(O)cc1	resazurin	H37Rv		6.25 µg/mL	inhibition	-14%
CN(c1ccc(OC[C@@]2(C)Cn3cc([N+](=O)[O-])nc3O2)cc1)C1CCN(c2ccc(OC(F)(F)F)cc2)CC1		H37Rv			MIC	0.024 µg/mL

ECn: concentration that inhibits the pathogen or its effect by n%. a–b is a range or a potency band. Conditions beyond the fields shown may differ between rows. MIC bound comes from a single tested concentration. Blank or dashed fields: not listed here. MIC50, MIC90 and the like: level of inhibition, or share of isolates inhibited.